Results on one compound are retold here after patent US20230355708A1, “COMPOSITIONS FOR INHIBITING VIRAL ENTRY AND METHODS USING SAME” (priority 2020, published 2023).

The nature of this data set: cytotoxicity.

In the case of `CC[C@H](C)[C@@H]1NC(=O)[C@H](CC(N)=O)NC(=O)[C@@H](N)CC(=O)NCCCC[C@@H](C(N)=O)NC(=O)[C@H](Cc2c[nH]c3ccccc23)NC(=O)[C@@H]2C[C@H](n3cc(-c4ccc(-c5ccc(C)s5)cc4)nn3)CN2C1=O`, the cytotoxicity result is on record as “without cytotoxicity”.
